This note sets out measurements from PubChem BioAssay AID588497 (NMMLSC, 2011).

Structures are written as SMILES. Only a part is listed here, and it is no random draw. Records with an inconclusive call do not appear. Calls of active or inactive are those of the source. Rule as the data show it: active = inhibition above about 35% (passing the limit was not always enough); inconclusive = no clear call, values can overlap the other calls.

In general, inhibition refers to the drop in the measured response relative to a control, in per cent.

The test system of this experiment is Botulinum neurotoxin type F light chain protease (Clostridium botulinum). Description: BoNT/F light chain protease inhibitors, primary screen, biochemical, flow cytometry, MLPCN library (AID 588497). Also: plate controls were buffer without enzyme for full effect and enzyme alone for no effect. The settings on record: Multiplex microsphere protease cleavage assay, at 10 µM, active compounds read high. For orientation: In flow cytometry, cells or beads pass a laser one at a time.
With `CP(=O)(Oc1ccccc1)OC(c1ccccc1)C(F)(F)F` (centres undefined), the inhibition is inactive: -5.3%.

`CP(=O)(Nc1ccccc1Br)Oc1ccccc1` (centres undefined): the inhibition was inactive: 4.1%. `COc1ccccc1OP(C)(=O)Nc1ccccc1` (centres undefined): the inhibition is inactive: 2.9%.

On to `CP(=S)(Nn1cnnc1)Oc1ccccc1` (centres undefined), for which the inhibition is inactive: -11.5%.

With `Cc1cc(C)cc(OP(C)(N)=O)c1` (centres undefined), the inhibition is inactive: 4.5%. For the molecule `COc1ccccc1OP(C)(=O)Nc1cc(Cl)ccc1C` (centres undefined), the inhibition was inactive: -0.7%. For the molecule `COc1ccc(OP(C)(=O)Nc2cccc(F)c2)cc1` (centres undefined), the inhibition was inactive: 3.5%. With `COc1ccccc1OP(C)(=O)Nc1ccc(C)cc1` (centres undefined), the inhibition is inactive: -2.6%. Take `Cc1ccc(NP(C)(=O)Oc2ccccc2)c(C)c1` (centres undefined): the inhibition is inactive: 1.4%. Turning to `CCOC(=O)c1ccc(NP(C)(=O)Oc2ccccc2)cc1` (centres undefined), the inhibition is inactive: 1.4%.

With `O=[N+]([O-])c1ccc2c(c1)C=Nc1ccccc1O2`, the inhibition was inactive: 1.3%. `CC(C)(C)c1ccc(OP(C)(=O)Nc2ccc(SC(F)(F)F)cc2)cc1` (centres undefined): the inhibition is inactive: -15.9%. Turning to `Cc1cccc(C)c1OP(C)(N)=O` (centres undefined), the inhibition was inactive: -4.5%. The value for `O=[N+]([O-])c1cc([N+](=O)[O-])c(Nc2cccnc2)c([N+](=O)[O-])c1` was inactive: -12%; that for `COc1ccccc1-c1ccccn1.O=[N+]([O-])c1cc([N+](=O)[O-])c(O)c([N+](=O)[O-])c1` was inactive: 8.8%. In the case of `CCN(CC)CCCOC(=O)C(O)(c1ccccc1)c1ccccc1`, the inhibition is inactive: 3.5%. Regarding `Cc1ccc(C)c(NP(C)(=O)Oc2ccccc2)c1` (centres undefined), the inhibition was inactive: -50.4%.

In the case of `CP(=O)(Nc1cccc(Br)c1)Oc1ccccc1` (centres undefined), the inhibition is inactive: -3.5%. On to `Cc1cc(C)cc(OP(C)(=O)Nc2ccccn2)c1` (centres undefined), for which the inhibition is inactive: 4.5%. `CCOC(=O)c1ccc(NP(C)(=O)Oc2cc(C)cc(C)c2)cc1` (centres undefined): the inhibition is inactive: -3.5%. Consider `Cc1cc(C)cc(OP(C)(=O)Nc2ccc(C)cc2C)c1` (centres undefined), for which the inhibition was inactive: 6.6%.

Turning to `COc1ccccc1OP(C)(=O)Nc1cccc(Br)c1` (centres undefined), the inhibition is inactive: -1.2%. Turning to `CC1=NCCc2c1[nH]c1ccccc21.O=[N+]([O-])c1cc([N+](=O)[O-])c(O)c([N+](=O)[O-])c1`, the inhibition was inactive: -9.5%.

For `O=C(O)c1cccc(Nc2c([N+](=O)[O-])cc([N+](=O)[O-])cc2[N+](=O)[O-])c1`, the inhibition was inactive: 2%. `COc1ccc(-c2ccccn2)cc1.O=[N+]([O-])c1cc([N+](=O)[O-])c(O)c([N+](=O)[O-])c1`: the inhibition is inactive: -11%. Take `CP(=O)(Nc1ccc(SC(F)(F)F)cc1)Oc1ccccc1` (centres undefined): the inhibition was inactive: -1.1%.

For the molecule `CCCOc1ccc(NP(C)(=O)Oc2ccc(Cl)cc2)cc1` (centres undefined), the inhibition is inactive: -6.3%. The value for `COc1ccccc1OP(C)(=O)Nc1c(C)cccc1C` (centres undefined) was inactive: 6%; that for `CN1CCCCC1COC(=O)C1(O)c2ccccc2CCc2ccccc21` (centres undefined) was inactive: -3.5%; that for `CC1=C2N=C(C=C3N=C(C(C)=C4[N-][C@@](C)([C@@H]5N=C1[C@](C)(CCC(=O)NC[C@@H](C)OP(=O)([O-])O[C@H]1[C@@H](O)[C@@H](n6cnc7cc(C)c(C)cc76)O[C@@H]1CO)[C@H]5CC(N)=O)[C@@](C)(CC(N)=O)[C@@H]4CCC(N)=O)[C@@](C)(CC(N)=O)[C@@H]3CCC(N)=O)C(C)(C)[C@@H]2CCC(N)=O.[C-]#N.[Co+3]` was inactive: -1.7%.

In the case of `CCOC(=O)C(CC)C1=NC(C)(C)Cc2ccccc21.O=[N+]([O-])c1cc([N+](=O)[O-])c(O)c([N+](=O)[O-])c1` (centres undefined), the inhibition is inactive: 2.7%.

Take `Cc1nc2ccc3ccccc3c2s1.O=[N+]([O-])c1cc([N+](=O)[O-])c(O)c([N+](=O)[O-])c1`: the inhibition was inactive: -1%. As for `CN(Cc1cccnc1)C(=O)COc1ccc(Cl)c(Cl)c1.O=[N+]([O-])c1cc([N+](=O)[O-])c(O)c([N+](=O)[O-])c1`, the inhibition was inactive: -9.9%.

`O=[N+]([O-])c1cc([N+](=O)[O-])c(-n2nnc3ccccc32)c([N+](=O)[O-])c1`: the inhibition is inactive: 8.8%.
